# Values from PubChem BioAssay AID1259414 (Drosophila RNAi Screening Center, 2018).
# Aim: 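Genome-wide screen for host control of endosymbiont load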 (primary screen)
# System: Drosophila JW18 cells infected with Wolbachia
# Reagents: long dsRNA against Drosophila genes, 0.25 µg dsRNA per well of a 384-well plate
# Duration: 5 days
# Conditions: cells persistently infected with Wolbachia before knock-down; no added drug
# Read-out: 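Automated imaging of bacterial rRNA staining divided by host cell count, reported as plate-normalised robust z-score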
# Direction: Wolbachia per cell robust z: higher = more Wolbachia per host cell than the plate typical
# Active means: 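Active if absolute robust z reaches 1.5 in two or more of three replicates, leaving out multi- or no-target dsRNAs, genes unexpressed in JW18 and A1 wells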
# In all, the deposit lists about 24,000 reagents; below is an unselected part of those with a known target gene and a result. Over the whole deposit, about 1,210 (5%) are marked active. 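Inactive calls also include excluded dsRNAs with several or no targets, genes unexpressed in JW18, and well A1, regardless of score.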 A plus sign joins genes that one reagent is predicted to hit.
predicted target,dsRNA,"Wolbachia per cell robust z, rep 1","Wolbachia per cell robust z, rep 2","Wolbachia per cell robust z, rep 3",outcome
CG34029,DRSC38893,1.68,0.549,0.636,inactive
asRNA:CR43259 + CG31089,DRSC15934,0.415,0.732,0.527,inactive
CG9588,DRSC16504,-0.121,-1.06,0.172,inactive
Xxylt,DRSC04107,-0.271,0.973,0.938,inactive
Nhe3,DRSC03380,-9.7,0.436,0.355,inactive
Muc12Ea,DRSC19937,-0.666,-1.71,-0.452,inactive
Muc12Ea,DRSC28059,-0.825,-2.03,-1.35,inactive
Menl-1 + Menl-2,DRSC29015,-0.171,0.836,0.423,inactive
Alp12,DRSC02515,0.436,1.08,0.352,inactive
MED11,DRSC23091,-1,-2.26,-0.313,inactive
MED11,DRSC25948,-0.129,-0.621,0.00416,inactive
snky,DRSC09838,-2.25,-1.86,1.25,inactive
lncRNA:CR41257,DRSC38682,0.996,0.355,0.392,inactive
smash,DRSC12139,-2.19,0.473,-1.22,inactive
smash,DRSC12141,-0.0811,-1.56,-4.69,active
smash,DRSC12239,-0.412,-1.26,-0.433,inactive
smash,DRSC12289,-1.56,-0.71,-0.935,inactive
smash,DRSC27803,-2.21,-1.71,-1.06,active
eIF3c,DRSC06905,3.46,4.18,1.95,active
CG12316,DRSC09879,0.558,0.463,-8.8,inactive
CG12316,DRSC27599,-3.37,-0.574,-1.64,active
CDK2AP1,DRSC19800,-1.88,-2.55,-1.44,active
CDK2AP1,DRSC25637,-0.653,-0.435,-0.654,inactive
CycT,DRSC11124,1.5,3.28,-0.728,active
CycT,DRSC23304,0.695,1,-0.264,inactive
CycT,DRSC29416,2.1,1.8,3.17,active
unc79,DRSC15746,-0.574,-0.433,-0.0876,inactive
unc79,DRSC25495,1.14,-0.36,-0.693,inactive
LSm3,DRSC15920,-0.0321,0.249,-6.56,inactive
Dtwd2,DRSC12501,-0.728,-0.716,-0.725,inactive
alpha-Est4aPsi,DRSC12473,-2.97,-4.47,-3.08,inactive
CG11350,DRSC08181,-0.674,-0.501,-1.22,inactive
CG11350,DRSC25083,-1.75,-0.191,-3.89,inactive
apolpp,DRSC17216,-0.496,-8.41,-0.0601,inactive
apolpp,DRSC40845,0.69,0.0872,-0.499,inactive
CG11396,DRSC11654,0.446,-5.95,0.544,inactive
MnM,DRSC08423,-2.13,-1.16,-1.21,inactive
CG32986,DRSC02509,0.701,1.26,0.902,inactive
CG32106,DRSC09219,-0.293,0.00862,-0.167,inactive
CG33631,DRSC38823,0.941,-0.681,1.42,inactive
CG33631,DRSC40660,-3.03,-2.54,0.721,inactive
Lrp4,DRSC20118,0.518,-5.76,1.68,inactive
Pepck1,DRSC07505,-0.0798,0.251,-0.675,inactive
Pepck1,DRSC26468,-0.0243,-1.21,-1.41,inactive
sgg,DRSC17228,-2.74,0.973,0.988,inactive
sgg,DRSC17722,1.29,-0.0917,-9.11,inactive
sgg,DRSC18832,0.471,1.02,0.589,inactive
sgg,DRSC23946,-4.46,1.13,2.22,inactive
sgg,DRSC40670,0.625,1.39,1.61,inactive
CG32631,DRSC19768,-1.25,-2.7,0.662,inactive
CG32631,DRSC28596,1.09,-0.209,1.42,inactive
Bin1,DRSC16843,-1.06,-0.189,-1.35,inactive
tbrd-2,DRSC07020,-0.0367,1.27,0.649,inactive
fry,DRSC08993,0.911,1.55,0.615,inactive
fry,DRSC10172,0.0699,-0.331,0.224,inactive
fry,DRSC10709,-3.36,0.32,0.662,inactive
fry,DRSC10712,-5.75,0.417,0.927,inactive
CG12974,DRSC11684,0.138,0.253,-4.93,inactive
IKKepsilon,DRSC03550,-8.32,-1.22,1.08,inactive
gd,DRSC20336,-5.06,0.421,-0.764,inactive
Spn43Ad,DRSC06770,-2.89,-0.121,-0.379,inactive
CG42395,DRSC40592,0.942,-0.867,0.294,inactive
mino,DRSC14132,-0.338,-0.31,-4.9,inactive
CG10802,DRSC17762,-0.439,-1.36,-0.348,inactive
CG10802,DRSC29607,-2.16,-0.0703,1.52,inactive
mRpS5,DRSC21380,0.851,1.32,1.47,inactive
Or63a,DRSC08681,0.185,0.938,1.31,inactive
Lmpt,DRSC09450,-0.0449,0.114,0.847,inactive
Lmpt,DRSC09864,-1.69,-1.76,0.326,active
Lmpt,DRSC09865,0.0131,-1.03,-1.85,inactive
Lmpt,DRSC09866,-0.905,-0.639,0.169,inactive
Lmpt,DRSC11107,1.33,-2.59,1.03,inactive
Lmpt,DRSC21738,-1.54,0.965,-0.658,inactive
Lmpt,DRSC22921,0.266,0.637,0.364,inactive
Lmpt,DRSC25095,1.07,-0.0922,0.573,inactive
Lmpt,DRSC25282,-0.0118,1.11,0.303,inactive
Lmpt,DRSC29293,1.03,0.314,1.59,inactive
CG42594,DRSC18408,0.0246,0.571,-0.755,inactive
CG42594,DRSC22978,0.413,-0.796,-4.18,inactive
CG42594,DRSC25767,0.0337,-1.56,-0.0832,inactive
CG42594,DRSC26285,-0.518,-0.938,0.0586,inactive
CG42594,DRSC28979,-0.41,-0.102,-3.42,inactive
CheB74a,DRSC38835,0.678,-0.151,0.422,inactive
Mondo,DRSC02668,-2.2,-3.76,-3.23,inactive
Mondo,DRSC22006,-0.309,-0.359,-0.596,inactive
Mondo,DRSC26287,0.321,-1.01,-4.22,inactive
RabX4,DRSC22189,0.315,0.0138,1.18,inactive
RabX4,DRSC26360,-0.0498,-7.49,-1.29,inactive
